Anti-infective test results gathered from many reports (values: NIAID ChemDB through PubChem).

MIC bound: limit read from a one-dose screen. Inhibition is in % at the dose shown (toxicity tests: loss of growth or viability). ICn is the concentration giving n% inhibition. CCn: concentration that lowers growth or viability of the cells by n%. Neighbouring rows are from separate reports. Blank or dashed fields: not listed here. Zone: diameter of growth inhibition.

structure	test	species	strain	cells	protein	read by	setting	endpoint	tested at	result
C(/C=C/c1ccccc1)=NCCNCCN=C/C=C/c1ccccc1.[N-]=[N+]=[N][Hg][N]=[N+]=[N-]	culture	Candida albicans				agar diffusion		zone	30000 µg/mL	28 mm
O=C1OCCN1[N+](=O)[O-]	toxicity			VERO				CC50		36.95 µg/mL
C=CP(=O)(O)OC[C@H]1O[C@@H](n2cc(C)c(=O)[nH]c2=O)C[C@@H]1F	toxicity			H9		trypan blue		CC50		>100 µM
Cc1cn([C@H]2C[C@H](N=[N+]=[N-])[C@@H](COP(=O)(O)F)O2)c(=O)[nH]c1=O	toxicity			MT-4				CC50		>100 µM
O=c1c2ccccc2c(=O)n2n1P(Cl)CP2Cl	culture	Mycobacterium tuberculosis	H37Rv			BACTEC		MIC bound		>12.5 µg/mL
Nc1ccn([C@H]2CC[C@@H](CO)O2)c(=O)n1	toxicity			MT-4				CC50		2280 µM
NC(=NCCN1CCN=C1N[N+](=O)[O-])N[N+](=O)[O-]	culture	Mycobacterium tuberculosis	H37Rv			resazurin		inhibition	6.25 µg/mL	-6%
Cc1cn([C@H]2C=C[C@@H](COP(=O)(O)F)O2)c(=O)[nH]c1=O	toxicity			PBMC		XTT		CC50		571 µM
Nc1ncnc2c1ncn2[C@H]1CC[C@@H](CO)O1	toxicity			MT-4				CC50		1493 µM
Cc1cn([C@H]2C[C@H](F)[C@@H](COP(=O)(O)C(F)F)O2)c(=O)[nH]c1=O	toxicity			H9		trypan blue		CC50		>100 µM
Nc1ncnc2c1ncn2[C@H]1CC[C@@H](CO)O1	toxicity			MT-4		XTT		CC50		1493 µM
N#Cc1c(SCCBr)nsc1-c1ccccc1	toxicity			L-929				CC50		25 µg/mL
Nc1ccn([C@H]2CC[C@@H](CO)O2)c(=O)n1	toxicity			MT-4		XTT		CC50		2280 µM
O=[N+]([O-])c1ccc(Cn2nnc(-c3cc([N+](=O)[O-])cc([N+](=O)[O-])c3)n2)cc1	culture	Mycobacterium kansasii	My 235/80				14 d	MIC		1 µM
NC1=NCCN1[N+](=O)[O-]	culture	Mycobacterium tuberculosis	H37Rv			resazurin		inhibition	6.25 µg/mL	-3%
Nc1ccn([C@H]2CC[C@@H](COP(=O)(O)F)O2)c(=O)n1	toxicity			PBMC		XTT		CC50		>1000 µM
O=[N+]([O-])N1CCCS1(=O)=O	culture	Mycobacterium tuberculosis	H37Rv			BACTEC		inhibition	12.5 µg/mL	0%
O=[N+]([O-])c1cc(S(=O)(=O)c2cc([N+](=O)[O-])c(Cl)c([N+](=O)[O-])c2)ccc1Cl	target	HIV-1			Integrase	3′ processing		IC50		67.5 µM

2 of the rows above, restated:

structure,test,species,strain,cells,protein,read by,setting,endpoint,tested at,result
NC(=NCCN1CCN=C1N[N+](=O)[O-])N[N+](=O)[O-],culture,Mycobacterium tuberculosis,H37Rv,,,resazurin,,inhibition,6.25 µg/mL,-6%
O=[N+]([O-])c1ccc(Cn2nnc(-c3cc([N+](=O)[O-])cc([N+](=O)[O-])c3)n2)cc1,culture,Mycobacterium kansasii,My 235/80,,,,14 d,MIC,,1 µM